The target in the assay is SARS-CoV-2 Spike (S) protein, recombinant, construct not stated at the place (SARS-CoV-2), P0DTC2. Conditions: remark: other sources report otherwise.

B1: Recombinant DC-SIGN (CD209) with human Fc tag, Q9NNX6 59-404 (Fc fusion)
chain: QVSKVPSSISQEQSRQDAIYQNLTQLKAAVGELSEKSKLQEIYQELTQLKAAVGELPEKSKLQEIYQELTRLKAAVGELPEKSKLQEIYQELTWLKAAVGELPEKSKMQEIYQELTRLKAAVGELPEKSKQQEIYQELTRLKAAVGELPEKSKQQEIYQELTRLKAAVGELPEKSKQQEIYQELTQLKAAVERLCHPCPWEWTFFQGNCYFMSNSQRNWHDSITACKEVGAQLVVIKSAEEQNFLQLQSSRSNRFTWMGLSDLNQEGTWQWVDGSPLLPSFKQYWNRGEPNNVGEEDCAEFSGNGWNDDKCNLAKFWICKKSAASCSRDEEQFLSPAPATPNPPPA
With B1, the blocking of S protein binding (heat-map cell) was found to be 70.1%.

B2: CLEC10A-His, Q8IUN9 (receptor)
soluble receptor: QNSKFQRDLVTLRTDFSNFTSNTVAEIQALTSQGSSLEETIASLKAEVEGFKQERQAGVSELQEHTTQKAHLGHCPHCPSVCVPVHSEMLLRVQQLVQDLKKLTCQVATLNNNASTEGTCCPVNWVEHQDSCYWFSHSGMSWAEAEKYCQLKNAHLVVINSREEQNFVQKYLGSAYTWMGLSDPEGAWKWVDGTDYATGFQNWKPGQPDDWQGHGLGGGEDCAHFHPDGRWNDDVCQRPYHWVCEAGLGQTSQESH
B2: the blocking of S protein binding (heat-map cell) is -32%.

Source of the values: patent US20220089695A1.
